The entries are a selection whose mix differs from that of the whole data set. The source made the active and inactive calls. Rule as the data show it: active = inhibition above about 32%; inactive = the rest.
Experiment: TEAD-YAP interaction inhibition, primary screen, TEAD-YAP interaction inhibitor project, luminescence, HEK-TIYL cells (AID 1259422);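 also: 0% = median of test compound wells and 100% = reference inhibitor wells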
Details: TEAD-Gal4/YAP UAS-luciferase luminescence, at 9.12 µM, hits give high values

| SMILES | inhibition |
| --- | --- |
| O=C(O)Cc1ccc(N(CCCl)CCCl)cc1 | inactive: 3.59% |

— PubChem BioAssay AID1259422 (The Scripps Research Institute Molecular Screening Center, 2018)
